Measured values taken from publication PMC9457997, “2-(Nitroaryl)-5-Substituted-1,3,4-Thiadiazole Derivatives with Antiprotozoal Activities: In Vitro and In Vivo Study” (Molecules, 2022).

Tested on: L. donovani, strain MHOM-ET-67/L82 axenically grown amastigotes
Test: In vitro activity against L. donovani axenic amastigotes
Type: cell-based
Conditions: selectivity index
Experimental: Miltefosine and benznidazole were used as reference drugs. […] In vitro activity against the protozoan parasites T. b. rhodesiense, T.cruzi, L. donovani and cytotoxicity assessment against L6 cells were determined as reported previously. The following strains, parasite forms, and positive controls were used: T. b. rhodesiense STIB 900 bloodstream forms, melarsoprol (received from WHO, Arsobal Sanofi); T.cruzi Tulahuen C2C4 intracellular amastigotes, benznidazole (received from DNDi synthesized by Epichem Pty Ltd., Murdoch, Australia); L. donovani MHOM-ET-67/L82 axenically grown amastigotes and intracellular amastigotes, miltefosine (Sigma M5571).

`Cn1c([N+](=O)[O-])cnc1-c1nnc(N2CCCCC2)s1` [Compound 18a] was tested, and the “SI (IC50 in L6 cells/IC50 in L. donovani axenic amastigotes)” value was >643.
